According to PubChem BioAssay AID977630 (Broad Institute, 2014):
This is a selection; strong and weak results do not stand in their true shares. Potency and affinity values are given separately. Results filed as inconclusive are left out. Active and inactive are the calls of the source.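 Rule for the calls: active = Normal-ribosome green reporter loss at least double humanized-ribosome red reporter loss, with overall culture growth inhibition under a set limit; inconclusive = no clear call, values can overlap the other calls; inactive = the rest.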

Test: growth inhibition of wild-type GFP E. coli, H38-humanized RFP comparator, dose response, H38 mutant RFP vs wild-type GFP, cherry-pick (AID 977630);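 note: wild-type GFP strain mixed equally with humanized-ribosome H38 mutant expressing RFP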
Details: mixed culture, 24 h; at 50 µM (top of the series)

Structure (SMILES) | activity change, negative = inhibition
O=[N+]([O-])c1cc([N+](=O)[O-])c(Nc2nnnn2CCO)c([N+](=O)[O-])c1 | inactive: -0.21
